The values below come from ChEMBL document CHEMBL1124338, “Amine peroxides as potential antimalarials” (J Med Chem, 1989).

Assay [1] deals with Plasmodium falciparum. Briefly: In vitro antimalarial activity against Plasmodium falciparum D6. It counts as functional, organism-based.
Assay [2] relates to Plasmodium falciparum. Briefly: In vitro antimalarial activity against Plasmodium falciparum W-2. It counts as functional, organism-based.

Only a part of the results on these compounds is given; other tests are left out.

The IC50 is the concentration needed to halve the response being measured. Lower therefore signals inhibition by little substance. Regarding `C1OOCN2COOCN1COOC2`, the IC50 was 2.7 µM in assay [1] and 3.8 µM in assay [2].
